Here are results for four compounds from PMC9241644, “Evaluation of Novel Quorum Sensing Inhibitors Targeting Auto-Inducer 2 (AI-2) for the Control of Avian Pathogenic Escherichia coli Infections in Chickens” (Microbiology Spectrum, 2022).

Some compounds share one wording; it may come from a single statement. Where only a bound is given, the exact number is not on record here.

The subject of one series is gut microbiota. The series is described as follows: Effect of QSIs on gut (cecal) microbiota, 16S rRNA analysis. The class given is in vivo, chickens. The settings on record: for Enterococcus relative abundance in treated group: NC 4% (QSI-5 sentence), 4.3% (QSI-8 sentence); for Erysipelatoclostridium relative abundance in treated group: NC 7.2%; for Firmicutes relative abundance in treated group: NC 91.4%; for alterations in the gut microbiota at the phylum level: compared to the NC or PC group, P > 0.05; for alpha diversity (phylogenetic diversity, richness, evenness) of the gut microbiota: compared with both NC and PC.

The nature of series [1]: Body weight gain and feed conversion ratio in field simulated trial. Type of series: in vivo, chickens. Particulars: to day 42; average overall feed intake/average BWG; not significant vs NC.
[2] abbreviates: cecum, printed as NC to treated, NC 0%.
Setting [3] is: cecum, printed as NC to treated.
[4] abbreviates: cecum, printed as NC to treated, not significant.

With `Cc1ccc(CN2CCN(CCCc3ccccc3)CC2)cc1` [QSI-5], in the series with gut microbiota (setting [2]), the “Clostridium sensu stricto 1 relative abundance in treated group” value worked out at 2.1%, the “Lactobacillus relative abundance in treated group” value (“Lactobacillus relative abundance” for short) worked out at 1.1% and the “Ruminiclostridium 5 relative abundance in treated group” value is 3.3%. In addition, in the series with gut microbiota (cecum, printed as NC to treated, NC 2.9%), the “Flavonifractor relative abundance in treated group” value stood at 6%. In the series on gut microbiota (setting [3]), the “Enterococcus relative abundance in treated group” value worked out at 0% and the “Erysipelatoclostridium relative abundance in treated group” value turned out to be 10.8%. The “Ruminococcus (torques group) relative abundance in treated group” value with gut microbiota (cecum, printed as NC to treated, NC 9%) came to 6%. The “Firmicutes relative abundance in treated group” value in the series on gut microbiota (setting [4]) is recorded as 95%. In addition, in the series on gut microbiota, the “alterations in the gut microbiota at the phylum level” value (shortened to “alterations in the gut microbiota”) is “did not cause significant alterations” and the “alpha diversity (phylogenetic diversity, richness, evenness) of the gut microbiota” value was “no difference”. Moreover, the “Overall feed conversion ratio (FCR)” value in series [1] is 1.48.
For `CCc1ccccc1NC1NC(c2c(C)nc3ccccn23)=CS1` (stereo not drawn) [QSI-8], the “increase in abundance of Butyricicoccus in the gut” value with gut microbiota (P < 0.05) is given as more than 4 folds. In the series on gut microbiota (setting [2]), the “Bacillus relative abundance in treated group” value is 1.8%, the “Butyricicoccus relative abundance in treated group” value worked out at 4.3% and the “Lactobacillus relative abundance” value stood at 4%. Besides, in the series with gut microbiota (setting [3]), the “Enterococcus relative abundance in treated group” value turned out to be 0% and the “Erysipelatoclostridium relative abundance in treated group” value was found to be 16.6%. The “Firmicutes relative abundance in treated group” value in the series on gut microbiota (setting [4]) amounted to 95%. Moreover, in the series with gut microbiota, the “alterations in the gut microbiota” value is “did not cause significant alterations” and the “alpha diversity (phylogenetic diversity, richness, evenness) of the gut microbiota” value is given as “no difference”.
`OCCC1CN(C2CCN(c3ccccc3)CC2)CCN1CCCc1ccccc1` (stereo not drawn) [QSI-10]: the “increase in abundance of Lactobacillus in the gut” value with gut microbiota (P < 0.05) is more than 30 folds. Besides, in the series on gut microbiota (cecum, printed as 6.7% to 11.9%), the “Escherichia-Shigella relative abundance in treated group” value was 11.9%. Moreover, the “Lactobacillus relative abundance” value in the series with gut microbiota (setting [2]) was found to be 31%. In addition, the “Proteobacteria relative abundance in treated group” value in the series with gut microbiota (cecum, printed as NC to treated, NC 8.6%, not significant) amounted to 13.7%. For the same compound, in the series on gut microbiota, the “alterations in the gut microbiota” value is on record as “did not cause significant alterations” and the “alpha diversity (phylogenetic diversity, richness, evenness) of the gut microbiota” value was “no difference”.
Consider `COc1cc(NS(=O)(=O)c2ccc(N)cc2)nc(OC)n1` [SDM, sulfadimethoxine, reference compound], for which the “Overall feed conversion ratio (FCR)” value in series [1] is recorded as 1.49.
